# Results taken from patent US20230303667A1 (EMORY UNIVERSITY, published 2023).
# Molecular target: T1, Ebola Zaire (Kikwit strain) glycoprotein (Ebola Zaire (Kikwit strain), UniProt P87666 33-676)
# T1 sequence: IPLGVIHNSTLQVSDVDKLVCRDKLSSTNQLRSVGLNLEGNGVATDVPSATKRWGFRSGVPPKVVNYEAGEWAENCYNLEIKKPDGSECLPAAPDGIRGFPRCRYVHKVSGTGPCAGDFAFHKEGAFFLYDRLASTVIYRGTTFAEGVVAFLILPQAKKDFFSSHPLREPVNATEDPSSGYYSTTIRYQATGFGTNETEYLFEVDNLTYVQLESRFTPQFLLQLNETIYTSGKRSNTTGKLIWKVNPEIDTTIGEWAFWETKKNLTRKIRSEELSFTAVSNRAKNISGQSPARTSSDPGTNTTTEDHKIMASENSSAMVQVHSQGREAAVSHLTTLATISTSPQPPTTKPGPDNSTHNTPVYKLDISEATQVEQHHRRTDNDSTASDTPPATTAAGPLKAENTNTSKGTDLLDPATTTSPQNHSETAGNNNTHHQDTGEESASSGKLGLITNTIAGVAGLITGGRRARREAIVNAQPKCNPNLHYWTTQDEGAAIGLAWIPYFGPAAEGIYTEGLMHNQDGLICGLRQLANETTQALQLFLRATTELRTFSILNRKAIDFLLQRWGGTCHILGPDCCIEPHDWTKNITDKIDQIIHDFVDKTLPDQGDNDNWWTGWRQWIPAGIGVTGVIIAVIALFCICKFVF
# Assay: cell-based or functional assay
binder,measurement,value
"2.1.7G07 (antibody, V domains shown) VH: EVQLVESGGGLVQPGGSLRLSCAASGFAFSTYAMSWVRQAPGKGLEWVSAITGSGYSTYYADSVKGRFTISGDNSKNTLYLQMNSLRAEDTALYYCAKVGEYYDFWSGYSPFDSWGQGTLVTVSS VL: EIVLTQSPGTLSLSPGERATLSCRASQSVSSSYLAWYQQKPGQAPRLLIYGAFNRATGIPDRFSGSGSGTDFTLTISRLEPEDFAVYYCQQYGRSPFTFGPGTKVDIK",PRNT50 (ug/ml) for Ebola Zaire (Kikwit strain),1.57 µg/mL
